Anti-infective test results gathered from many reports (values: NIAID ChemDB through PubChem).

All rows: whole-cell or culture tests; agent: Candida krusei

A number after MIC or MFC names an inhibition level or a share of isolates. Rows are shuffled and stem from different studies. Zone: diameter of growth inhibition. ECn is the concentration giving n% inhibition of infection, replication or growth.

c1ccc(C(c2ccccc2)n2cnc3ccccc32)cc1 ; endpoint: MIC90 ; read by: agar ; value: >256 µg/mL
Cc1ccc(-c2c3c(N)c4c(nc3nc3c2c(C)nn3-c2ccccc2)CCCCC4)cc1 ; endpoint: MIC50 ; strain: CCC 117 ; read by: broth dilution / absorbance ; value: 62.5 µg/mL
O=c1cc(CO)occ1O ; endpoint: MIC99 ; strain: ATCC 6258 ; value: >12800 µM
CC(=O)Nc1ccc(C(=O)N/N=C/c2cccc(O)c2)cc1 ; endpoint: EC50 ; strain: ATCC 6258 ; read by: broth dilution ; value: 34 µM
Clc1ccc(C(c2ccccc2)N2CCN(CCn3cncn3)CC2)cc1 ; endpoint: MIC90 ; read by: agar ; value: >256 µg/mL
CCOc1ccc2nc3cc(N=C4NC(=O)/C(=C\c5ccc([N+](=O)[O-])cc5)S4)ccc3c(N)c2c1 ; endpoint: MFC ; read by: broth dilution ; value: 750 µg/mL
NC(=O)c1cc[n+](CCC[n+]2cccc(/C=N/O)c2)cc1.[Br-].[Br-] ; endpoint: EC50 ; read by: broth dilution ; value: >20 µg/mL
O=C(O[C@@H]1COC(=O)c2cc(O)c(O)c(O)c2-c2c(cc(O)c(O)c2O)C(=O)OC1C1OC(=O)c2cc(O)c(O)c(O)c2-c2c(O)c(O)c(O)c3c2C(=O)OC1[C@H]3O)c1cc(O)c(O)c(O)c1 ; endpoint: MIC100 ; strain: ATCC 6258 ; read by: broth dilution ; value: 580 µg/mL
O/N=C/c1cccc[n+]1Cc1ccc(Br)s1.[Cl-] ; endpoint: EC50 ; read by: broth dilution ; value: >20 µg/mL
C=CCc1ccc(OC)c(OC)c1 ; endpoint: MIC90 ; strain: 139 ; read by: turbidity ; value: 350 µg/mL
CCCCCOc1ccc(-c2cc(-c3ccc(C(=O)N[C@H]4C[C@@H](O)[C@@H](O)NC(=O)[C@@H]5[C@@H](O)[C@@H](C)CN5C(=O)[C@H]([C@H](O)CC(N)=O)NC(=O)[C@H]([C@H](O)[C@@H](O)c5ccc(O)c(OS(=O)(=O)O)c5)NC(=O)[C@@H]5C[C@@H](O)CN5C(=O)[C@H]([C@@H](C)O)NC4=O)cc3)no2)cc1 ; endpoint: MIC50 ; read by: broth dilution ; value: 0.13 µg/mL
O/N=C/c1ccc[n+](Cc2ccc(C[n+]3cccc(/C=N/O)c3)s2)c1.[Cl-].[Cl-] ; endpoint: EC50 ; read by: broth dilution ; value: >20 µg/mL
NC(Cc1ccccc1)C(=O)CC(CC1C=Nc2ccccc21)C(=O)NC(Cc1cccc(O)c1)C(=O)O ; endpoint: MFC ; strain: ATCC 6258 ; read by: broth dilution ; value: 764 µg/mL
CCCCCCCCCCCCCCn1cc[n+](COCCCOC[n+]2ccn(CCCCCCCCCCCCCC)c2)c1 ; endpoint: MIC100 ; strain: ATCC 6258 ; read by: agar diffusion ; value: 7 µM
C/C(C=NCCN=C/C(C)=C\c1ccccc1)=C/c1ccccc1 ; endpoint: MIC90 ; strain: ATCC 6258 ; read by: agar diffusion ; value: 190 µM
COc1ccccc1NC(=O)CN(C)CC(O)(Cn1cncn1)c1ccc(F)cc1F ; endpoint: MIC80 ; value: 4 µg/mL
CCCn1cc[n+](COCCCOC[n+]2ccn(CCC)c2)c1 ; endpoint: MIC100 ; strain: ATCC 6258 ; read by: agar diffusion ; value: 1576 µM
Clc1ccc(C(c2ccccc2)n2nnc3ccccc32)cc1 ; endpoint: MFC ; read by: broth dilution ; value: >256 µg/mL
C[C@@H](N1CCN(Cc2cn(Cc3ccc(F)cc3F)c3ccc(C#N)cc23)CC1)[C@](O)(Cn1cncn1)c1ccc(F)cc1F ; endpoint: MIC80 ; strain: ATCC 6258 ; read by: resazurin ; value: 0.25 µg/mL
CN(CC(=O)Nc1ccc(F)c(Cl)c1)CC(O)(Cn1cncn1)c1ccc(F)cc1F ; endpoint: MIC80 ; value: 4 µg/mL
CC(C)CC(O)C(=O)O ; endpoint: MFC100 ; strain: D 206 B ; read by: broth dilution / visual reading ; value: 72000 µg/mL
CN(CC(=O)Nc1cccc([N+](=O)[O-])c1)CC(O)(Cn1cncn1)c1ccc(F)cc1F ; endpoint: MIC80 ; value: >64 µg/mL
O=C(O)O ; endpoint: MIC50 ; strain: ATCC 6258 ; read by: broth dilution ; value: 100 µg/mL
CC(C)CC1NC(=O)CC(CCCCCCCCC(C)O)OC(=O)C(CC(C)C)NC(=O)C(CC(C)C)NC(=O)C(CC(C)C)NC(=O)C(C(C)C)NC(=O)C(CC(=O)O)NC(=O)C(CC(C)C)NC1=O ; endpoint: MFC ; strain: Clinical isolate ; read by: visual reading ; value: 2 µg/mL
CN[C@H]1CC[C@@H](c2ccc(Cl)c(Cl)c2)c2ccccc21 ; endpoint: MFC ; strain: DUMC132.91 ; read by: broth dilution ; value: 16 µg/mL
C[C@@H](N1CCN(Cc2cn(Cc3ccc(F)cc3F)c3cc(Cl)ccc23)CC1)[C@](O)(Cn1cncn1)c1ccc(F)cc1F ; endpoint: MIC80 ; strain: ATCC 6258 ; read by: resazurin ; value: 0.5 µg/mL
C[C@H]1[C@H](O)[C@@H](C)/C=C/C=C/C=C/C=C/C=C/C=C/C=C/[C@H](O[C@@H]2O[C@H](C)[C@@H](O)[C@H](N)[C@@H]2O)C[C@@H]2O[C@](O)(C[C@@H](O)C[C@@H](O)CC[C@H](O)[C@@H](O)C[C@@H](O)CC(=O)O[C@H]1C)C[C@H](O)[C@H]2C(=O)O ; endpoint: MIC99 ; strain: ATCC 6258 ; read by: broth dilution / absorbance ; value: 0.78 µM
CCCCCCCCCCCCn1cc[n+](COCCOC[n+]2ccn(CCCCCCCCCCCC)c2)c1 ; endpoint: MIC100 ; strain: ATCC 6258 ; read by: agar diffusion ; value: 2 µM
O/N=C/c1cccc[n+]1Cc1csc2ccccc12.[Cl-] ; endpoint: EC50 ; read by: broth dilution ; value: >20 µg/mL
Cc1cc(C)cc(NC(=O)CN(C)CC(O)(Cn2cncn2)c2ccc(F)cc2F)c1 ; endpoint: MIC80 ; value: 16 µg/mL
OC(CNCCCOc1ccc(Br)cc1)(Cn1cncn1)c1ccc(F)cc1F ; endpoint: EC80 ; value: <0.125 µg/mL
Cc1ccc(-c2c3c(N)c4c(nc3nc3c2c(C)nn3-c2ccccc2)CCC4)cc1 ; endpoint: MIC50 ; strain: CCC 117 ; read by: broth dilution / absorbance ; value: 62.5 µg/mL
C[C@@H](N1CCN(Cc2cn(Cc3ccc(Cl)cc3Cl)c3c(Cl)cccc23)CC1)[C@](O)(Cn1cncn1)c1ccc(F)cc1F ; endpoint: MIC80 ; strain: ATCC 6258 ; read by: resazurin ; value: 1 µg/mL
C=CC(C)(C)c1cc(C2CC(=O)c3c(cc(O)c(CC=C(C)C)c3O)O2)c(O)cc1O ; dose: 2 mg/mL ; endpoint: zone ; strain: laryngeal prosthesis isolate ; read by: agar diffusion / agar ; value: 12 mm
CCCCCCCCCn1cc[n+](COCCCOC[n+]2ccn(CCCCCCCCC)c2)c1 ; endpoint: MIC100 ; strain: ATCC 6258 ; read by: agar diffusion ; value: 9 µM
C[C@@H](N1CCN(Cc2cn(Cc3cccc(C(F)(F)F)c3)c3ccccc23)CC1)[C@](O)(Cn1cncn1)c1ccc(F)cc1F ; endpoint: MIC80 ; strain: ATCC 6258 ; read by: resazurin ; value: 1 µg/mL
COc1cc(NC(C)CCCNC(=O)CC(NC(=O)[C@H](N)CCCN)C(=O)O)c2nc(C(C)(C)C)ccc2c1 ; endpoint: EC50 ; read by: broth dilution ; value: >20 µg/mL
Cc1ccc(-c2c3c(N)c4c(nc3nc3c2c(C)nn3-c2ccccc2)CCCC4)cc1 ; endpoint: MIC100 ; strain: CCC 117 ; read by: broth dilution / absorbance ; value: 15.6 µg/mL
Clc1ccccc1C(c1ccccc1)(c1ccccc1)n1ccnc1 ; conditions: 48 h ; endpoint: MIC ; strain: Clinical isolates ; value: 4 µg/mL
CC(O)Cc1ccc(Cn2cc(CN3CCN([C@H](C)[C@](O)(Cn4cncn4)c4ccc(F)cc4F)CC3)c3cccc(F)c32)cc1 ; endpoint: MIC80 ; strain: ATCC 6258 ; read by: resazurin ; value: 64 µg/mL
COc1ccc(C(c2ccc(OC)cc2)n2cncn2)cc1 ; endpoint: MFC ; read by: broth dilution ; value: >256 µg/mL
C[C@@H](N1CCN(Cc2cn(-c3ccc(F)cc3)c3cc(Cl)ccc23)CC1)[C@](O)(Cn1cncn1)c1ccc(F)cc1F ; endpoint: MIC80 ; strain: ATCC 6258 ; read by: resazurin ; value: 0.5 µg/mL
COc1cccc(NC(=O)CN(C)CC(O)(Cn2cncn2)c2ccc(F)cc2F)c1 ; endpoint: MIC80 ; value: 64 µg/mL
C[C@@H](N1CCN(Cc2cn(Cc3ccc(F)cc3)c3ccccc23)CC1)[C@](O)(Cn1cncn1)c1ccc(F)cc1F ; endpoint: MIC80 ; strain: ATCC 6258 ; read by: resazurin ; value: 1 µg/mL
C[C@@H](c1ncncc1F)[C@](O)(Cn1cncn1)c1ccc(F)cc1F ; endpoint: MIC50 ; read by: broth dilution ; value: 0.5 µg/mL
CC(O)Cc1ccc(Cn2cc(CN3CCN([C@H](C)[C@](O)(Cn4cncn4)c4ccc(F)cc4F)CC3)c3ccccc32)cc1 ; endpoint: MIC80 ; strain: ATCC 6258 ; read by: resazurin ; value: 128 µg/mL
CC(C)C[C@H](N)C(=O)O ; endpoint: MFC100 ; strain: D 206 B ; read by: broth dilution ; value: >72000 µg/mL

For reference, 3 entries again:

{"SMILES": "O=C(O)O", "endpoint": "MIC50", "strain": "ATCC 6258", "read by": "broth dilution", "value": "100 µg/mL"}
{"SMILES": "CC(=O)Nc1ccc(C(=O)N/N=C/c2cccc(O)c2)cc1", "endpoint": "EC50", "strain": "ATCC 6258", "read by": "broth dilution", "value": "34 µM"}
{"SMILES": "C[C@@H](N1CCN(Cc2cn(Cc3ccc(F)cc3F)c3cc(Cl)ccc23)CC1)[C@](O)(Cn1cncn1)c1ccc(F)cc1F", "endpoint": "MIC80", "strain": "ATCC 6258", "read by": "resazurin", "value": "0.5 µg/mL"}